Anti-infective test results gathered from many reports (values: NIAID ChemDB through PubChem).

Common to all: growth or infection tests; organism: HIV-1; read by: RT activity; measure: EC50

Neighbouring rows are from separate reports. ECn is the concentration giving n% inhibition of infection, replication or growth. Blank or dashed fields: not listed here. Two numbers with a dash give a range or band.

| SMILES | strain or isolate | cell line | setting | changes | result |
|---|---|---|---|---|---|
| CCCCCc1ccc(-c2cc3cn(CC=C(CO)CO)c(=O)nc3o2)cc1 | LAI | PBMC |  |  | 4.9 µM |
| O=c1ccn([C@H]2C[C@@](F)(CC(F)(F)P(=O)(O)O)CO2)c(=O)[nH]1 |  | PBMC |  |  | >100 µM |
| CNc1nc(NC)c2ncn([C@H]3C=C[C@@H](OCP(=O)(O)O)O3)c2n1 | IIIB | MT-4 |  |  | >125 µg/mL |
| Cc1cn([C@H]2C[C@H](N=[N+]=[N-])[C@@H](CO)O2)c(=O)[nH]c1=O | IIIB | MT-4 |  |  | 0.04 µM |
| Cc1ccnc2c1NC(=O)c1cccnc1N2C1CC1 | IIIB | MT-4 |  |  | 0.083 µg/mL |
| O=c1[nH]cnc2c1ncn2[C@@H]1CS[C@@H](CO)O1 | LAV | PBMC |  |  | 100 µM |
| Nc1nc(=O)n([C@H]2C[C@H](O)[C@@H](CO)O2)cc1-c1cccs1 | IIIB | H9 |  |  | >10 µg/mL |
| CNc1nc(N)c2ncn([C@H]3C=C[C@@H](OCP(=O)(O)O)O3)c2n1 | IIIB | MT-4 |  |  | >125 µg/mL |
| O=C(O)P(=O)(O)O |  | H9 |  |  | <50 µg/mL |
| Nc1nc(=O)n([C@H]2CS[C@@H](CO)O2)cc1F | LAI | PBMC |  |  | 0.03 µM |
| CCCCNP(=O)(OC[C@@H]1O[C@H](n2cc(C)c(=O)[nH]c2=O)C[C@H]1N=[N+]=[N-])OC[C@H]1O[C@@H](n2cc(C)c(=O)[nH]c2=O)C[C@@H]1N=[N+]=[N-] | LAI | CEM + CEM TK- |  |  | 70 µM |
| Nc1ccn([C@H]2C[C@@](F)(CC(F)(F)P(=O)(O)O)CO2)c(=O)n1 |  | PBMC |  |  | >100 µM |
| O=c1[nH]cnc2c1ncn2[C@H]1CC[C@@H](CO)O1 | HxB2D(RT-D67G) | CBMC |  | RT-D67G | 3 µM |
| Nc1nc(=O)n([C@@H]2C[C@@H](O)[C@H](CO)O2)cc1F | LAV | PBMC |  |  | >100 µM |
| Cc1cn([C@H]2C[C@H](N=[N+]=[N-])[C@@H](CO)O2)c(=O)[nH]c1=O | LAI | CEM |  |  | 0.0024 µM |
| O=c1[nH]cnc2c1ncn2[C@H]1CC[C@@H](CO)O1 | IIIB | PBL(PHA STIM.) + PBL |  |  | 19 ± 8.3 µM |
| Nc1ccn([C@@H]2C[C@@H](O)[C@H](CO)O2)c(=O)n1 | LAV | PBMC |  |  | >200 µM |
| CCCCCCCC/C=C\CCCCCCCC(=O)O[C@@H]1Cc2ccccc2[C@@H]1NC(=O)[C@H](Cc1ccccc1)C[C@H](O)CN1CCN(Cc2cccnc2)C[C@H]1C(=O)NC(C)(C)C | LAI | CEM |  |  | 0.11 µM |
| Cc1cn([C@@H]2C[C@@H](N)[C@H](CO)O2)c(=O)[nH]c1=O | LAV | PBMC |  |  | >10 µM |
| Cc1cn([C@@H]2CS[C@@H](CO)O2)c(=O)nc1N | LAV | PBMC |  |  | 100 µM |
| Cc1cn([C@H]2C[C@H](N=[N+]=[N-])[C@@H](CO)O2)c(=O)[nH]c1=O | LAV | H9 |  |  | <0.5 µM |
| O[C@H]1[C@H]2c3cc4c(cc3CN3CCC(=C[C@@H]1O)[C@H]23)OCO4 | IIIB | MT-4 |  |  | 0.4 µg/mL |
| CC(C)(C)C(=O)SCCCCOP(=O)(OCCCCSC(=O)C(C)(C)C)OC[C@@H]1CC[C@H](n2cnc3c(N)ncnc32)O1 | LAI | CEM + CEM TK- |  |  | >10 µM |
| CC(C)(C)NC(=O)[C@@H]1C[C@@H]2CCCC[C@@H]2CN1C[C@@H](OC(=O)[C@H](Cc1ccccc1)NC(=O)OC(C)(C)C)[C@H](Cc1ccccc1)NC(=O)[C@H](CC(N)=O)NC(=O)c1ccc2ccccc2n1 | LAI | CEM |  |  | 0.028 µM |
| Cc1cn([C@H]2C[C@H](N=[N+]=[N-])[C@@H](CO)O2)c(=O)[nH]c1=O | LAV | PBMC |  |  | 0.01 µM |
| Nc1nc(N)c2ncn(C[C@@H](CO)OCP(=O)(O)O)c2n1 | LAV | C3 |  |  | 2.3 µM |
| Cc1cn([C@H]2C[C@H](N=[N+]=[N-])[C@@H](CO)O2)c(=O)[nH]c1=O | LAI | PBMC |  |  | 0.016 µM |
| Cc1cn([C@@H]2O[C@H](CO)C=C2F)c(=O)nc1N | LAV | PBMC |  |  | >100 µM |
| Cc1cn([C@H]2C[C@H](N=[N+]=[N-])[C@@H](CO)O2)c(=O)[nH]c1=O | H112-2 (AZT-susceptible) | PBMC |  |  | 0.005 µM |
| CC(C)(C)NC(=O)[C@@H]1C[C@@H]2CCCC[C@@H]2CN1C[C@@H](OC(=O)COc1ccc(C[C@H](N)C(=O)O)cc1)[C@H](Cc1ccccc1)NC(=O)[C@H](CC(N)=O)NC(=O)c1ccc2ccccc2n1 | LAI | CEM |  |  | 0.033 µM |
| Cc1cn([C@H]2C[C@H](N=[N+]=[N-])[C@@H](COP(=O)(OCCCCCCCCN(C)CCN(C)C)OC[C@H]3OC(O)[C@H](O)[C@@H](O)[C@@H]3O)O2)c(=O)[nH]c1=O | LAI | CEM + CEM-4 |  |  | 0.05 µM |
| Oc1ccc(-c2c3nc(c(-c4ccc(O)cc4)c4ccc([nH]4)c(-c4ccc(O)cc4)c4nc(c(-c5ccc(O)cc5)c5ccc2[nH]5)C=C4)C=C3)cc1 | LAV | PBMC |  |  | 0.6 µM |
| Nc1ccn([C@H]2CC[C@@H](CO)O2)c(=O)n1 | Clinical isolate 263 | MT-4 |  |  | 0.35 µM |
| COC(=O)N[C@H](C(=O)N[C@@H](Cc1ccccc1)[C@@H](O)CN(Cc1ccc(-c2ccccn2)cc1)NC(=O)[C@@H](NC(=O)OC)C(C)(C)C)C(C)(C)C | RF | MT-2 |  |  | 0.00572 µM |
| Nc1ncnc2c1ncn2[C@@H]1CC[C@H](CO)O1 | LAV | PBMC |  |  | >10 µM |
| C[C@@H]1[C@H](O)[C@@H](C)/C=C/C=C/CC/C=C/C=C/C=C/C=C/C(O[C@H]2O[C@H](C)[C@@H](O)[C@H](N)[C@@H]2O)CC2O[C@](O)(CC(O)C(O)CCC(O)CC(O)CC(O)CC(=O)O[C@H]1C)CC(O)C2C(=O)O |  | H9 |  |  | <5 µg/mL |
| O=Nc1c(-c2c(O)[nH]c3ccccc23)[nH]c2ccccc12 | SF162 | MDM | 28 d |  | <1 µM |
| Nc1nc(=O)n([C@H]2CO[C@@H](CO)S2)cc1F | 4246 | CBMC |  |  | 0.3 µM |
| Nc1nc(=O)n([C@H]2C[C@H](O)[C@@H](CO)O2)cc1-c1ccncc1 | IIIB | H9 |  |  | >10 µg/mL |
| CCOP(=O)(OCC)C(F)(F)C[C@@]1(F)CO[C@@H](n2ccc(N)nc2=O)C1 |  | PBMC |  |  | >100 µM |
| Nc1ncnc2c1ncn2[C@@H]1C[C@@H](O)[C@H](CO)O1 | LAV | PBMC |  |  | >10 µM |
| C=C(C)[C@@H]1CC[C@]2(C(=O)NCCCCCCCC(=O)N[C@@H](CC(C)C)[C@H](O)CC(=O)O)CC[C@]3(C)[C@H](CC[C@@H]4[C@@]5(C)CC[C@H](O)C(C)(C)[C@@H]5CC[C@]43C)[C@@H]12 | 89.6 | PBMC |  |  | <1.84 µM |
| CCCCCCCCc1cc2cn(CC=C(CO)CO)c(=O)nc2o1 | LAI | PBMC |  |  | 25.1 µM |
| CC[n+]1ccc(C2=C3C=CC(=N3)C(c3cc[n+](CC)cc3)=C3C=CC(=C(c4cc[n+](CC)cc4)C4=NC(=C(c5cc[n+](CC)cc5)C5=CC=C2[NH2+]5)C=C4)[NH2+]3)cc1.[Cl-] | LAV | PBMC |  |  | 2 µM |
| Nc1nc2c(ncn2[C@H]2CO[C@@H](CO)O2)c(=O)[nH]1 | IIIB | MT-2 |  |  | 0.085 µM |
| [N-]=[N+]=N[C@@H]1C[C@@H](n2cc(F)c(N)nc2=O)O[C@H]1CO | LAV | PBMC |  |  | 0.05 µM |
| Nc1nc(=O)n([C@@H]2CO[C@H](CO)S2)cc1F | 3887(RT-M184M/V) | CBMC |  | RT-M184M/V | 4 µM |
| CC(C)[C@H](NC(=O)[C@H](Cc1ccccc1)C[C@H](O)[C@H](Cc1ccccc1)NC(=O)OC(C)(C)C)C(=O)N[C@@H](Cc1ccccc1)C(=O)N1CCOCC1 | LAV | PBMC |  |  | 0.033 µM |
| Nc1nc(Cl)nc2c1ncn2[C@H]1C=C[C@@H](OCP(=O)(O)O)O1 | IIIB | MT-4 |  |  | >9.4 µg/mL |
| CCCCCCCC/C=C\CCCCCCCC(=O)NCCCOc1c(Br)cc(CCNC(=O)CCCCCCCCCCCCC(C)C)cc1Br |  | PBMC |  |  | 52.2 µM |
| CC(C)Nc1cccnc1N1CCN(C(=O)c2cc3cc(NS(C)(=O)=O)ccc3[nH]2)CC1 | Group O isolate | PBMC |  |  | 15.5 µM |
| Nc1nc(N)c2ncn([C@H]3CO[C@@H](CO)O3)c2n1 | HXB2D | CBMC |  |  | 1.1 µM |
| O=c1[nH]cnc2c1ncn2[C@H]1CC[C@@H](CO)O1 | RF | C8166 |  |  | 0.62 µM |
| COC(=O)[C@H](C)NP(=O)(OC[C@H]1O[C@@H](n2cc(C)c(=O)[nH]c2=O)C[C@@H]1N=[N+]=[N-])Oc1ccc(Br)cc1 | IIIB | CEM + CEM TK- |  |  | 0.037–0.039 µM |
| Cc1cn([C@H]2C[C@@](F)(CC(F)(F)P(=O)(O)O)CO2)c(=O)[nH]c1=O |  | PBMC |  |  | >100 µM |
| Nc1ncnc2c1ncn2[C@H]1CC[C@@H](CO)O1 | LAI | CEM + CEM-SS |  |  | 1.5 µM |
| CC(C)=CCN1Cc2cccc3[nH]c(=S)n(c23)C[C@@H]1C | HX(RT-S156A) | MT-2 |  | RT-S156A | 0.09 µM |
| O=S(=O)(O)c1ccc(-c2c3nc(c(-c4ccc(S(=O)(=O)O)cc4)c4ccc([n-]4)c(-c4ccncc4)c4ccc([n-]4)c(-c4ccc(S(=O)(=O)O)cc4)c4nc2C=C4)C=C3)cc1.[Na+] | LAV | PBMC |  |  | <1 µM |
| Cc1ccc(NC(=O)NCCSCc2ccc(CNC(C)C)o2)cc1Cl |  | MAGI |  |  | >100 µM |
| Nc1nc2c(ncn2[C@H]2C=C[C@@H](CO)C2)c(=O)[nH]1 | IIIB | PBMC |  |  | 0.05–0.15 µM |
| Nc1ccn([C@H]2CC[C@@H](CO)O2)c(=O)n1 | PDBC | MT-2 |  |  | 0.23 µM |
| Cc1cn([C@H]2C[C@H](N=[N+]=[N-])[C@@H](CO)O2)c(=O)[nH]c1=O | LAI | CEM + CEM-SS |  |  | 0.014 µM |
| Cc1cn([C@H]2C[C@H](N=[N+]=[N-])[C@@H](CO)O2)c(=O)[nH]c1=O | LAV | C3 |  |  | 0.02 µM |
| CCCCCCCCc1cc2cn(COCCO)c(=O)nc2o1 | LAI | PBMC |  |  | 49.8 µM |
| O=C(/C=C/c1cn([C@H]2C=C[C@@H](CO)O2)c(=O)[nH]c1=O)NCCCCCCNC(=O)C(F)(F)F | IIIB | MT-4 |  |  | >100 µM |
| CSc1nc(N)c2ncn([C@H]3C=C[C@@H](OCP(=O)(O)O)O3)c2n1 | IIIB | MT-4 |  |  | 75.4 µg/mL |
| CCCCCCc1ccsc1-c1cn([C@@H]2C[C@H](O)[C@@H](CO)O2)c(=O)[nH]c1=O | IIIB | H9 |  |  | >10 µg/mL |
| CCCCCCCCC#Cc1cn(COCCO)c(=O)[nH]c1=O | LAI | PBMC |  |  | 23.7 µM |
| CC(C)(C)C(=O)SCCOP(=O)(OCCSC(=O)C(C)(C)C)OC[C@@H]1CC[C@H](n2cnc3c(N)ncnc32)O1 | LAI | CEM + CEM-SS |  |  | 0.0002 µM |

Repeating the first 4 entries:

SMILES,strain or isolate,cell line,setting,changes,result
CCCCCc1ccc(-c2cc3cn(CC=C(CO)CO)c(=O)nc3o2)cc1,LAI,PBMC,,,4.9 µM
O=c1ccn([C@H]2C[C@@](F)(CC(F)(F)P(=O)(O)O)CO2)c(=O)[nH]1,,PBMC,,,>100 µM
CNc1nc(NC)c2ncn([C@H]3C=C[C@@H](OCP(=O)(O)O)O3)c2n1,IIIB,MT-4,,,>125 µg/mL
Cc1cn([C@H]2C[C@H](N=[N+]=[N-])[C@@H](CO)O2)c(=O)[nH]c1=O,IIIB,MT-4,,,0.04 µM